Data reported in article doi:10.1101/426809.
The exact form of at least one protein or probe is not confirmed. Tags and fusion partners may be left off the protein sequences shown.

Target: T1, HupA6xHis (Clostridium difficile 630Δerm) (UniProt Q180Z4)
T1 sequence (looked up, limits assumed): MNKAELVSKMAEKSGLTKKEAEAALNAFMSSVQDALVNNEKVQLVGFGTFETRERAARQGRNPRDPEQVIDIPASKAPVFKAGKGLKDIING
Assay: EMSA
Settings: 12 mM Mg2+, 2.5 mM ATP, no notable difference in affinity between G+C contents

Sequence: CGCCAGGCCAGGGCTGTCACTGTGCAGCTCGTGGACGC (double strand) [oAF61/oAF62, 71.1% G+C]
- binding signal (% DNA bound at 2 µM protein): 70

Sequence: CATCAGGCAAGAGTAGTCACTGTGTAGCTCGTGGATGC (double strand) [oAF63/oAF64, 52.6% G+C]
- binding signal (% DNA bound at 2 µM protein): 70
